PubChem BioAssay AID504761 | Drosophila RNAi Screening Center | 2011
In all, the deposit lists about 22,000 reagents; this is a random part of those with a known target gene and a result. Of all reagents, 116 (0.52%) were called active. 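Calls depend on retest data that are not deposited; infection was ranked per plate without normalising between plates; the unit of the infection score is not given.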 The raw values are shown without normalisation. Entries without a mark were called inactive. The numbers tell different reagents against one gene apart. Names joined by + are all predicted targets of the reagent. Not all columns of the deposit are shown. Not given: the amount of reagent, the time to read-out.

- Test: 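Insect host genes that dengue virus relies on to spread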 (primary screen)
- System: D.Mel-2 cells from Drosophila
- Reagents: long dsRNA against Drosophila genes
- Challenge: infection with dengue virus type 2; dose and infection time not stated
- Measured: 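Cells stained for dengue envelope protein and imaged; percent of infected cells per well on duplicate plates, ranked by infection, with stained nuclei counted for cell number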
- Scale: infection score: higher = more virus-infected cells; cell count: higher = more cells in the well
- Hit rule: 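Very low infection ranking in both replicate wells (chance probability at most 0.065), then a retest showing infection dropped 1.5-fold or more at p below 0.05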
- Calls: active = confirmed: knock-down lowers infection; inactive = not picked or not confirmed

The first 3 records, ahead of the listing:
BomT3 (Bomanin Tailed 3) #1
- infection score, replicate 1: 12
- cell count, replicate 1: 6031

BomT3 (Bomanin Tailed 3) #2
- infection score, replicate 1: 3.38
- cell count, replicate 1: 6279

Irk1 (Inwardly rectifying potassium channel 1)
- infection score, replicate 1: 1.71
- cell count, replicate 1: 6534

The listing, from the first entry:
BomT3 (Bomanin Tailed 3) #1
- infection score, replicate 1: 12
- cell count, replicate 1: 6031

BomT3 (Bomanin Tailed 3) #2
- infection score, replicate 1: 3.38
- cell count, replicate 1: 6279

Irk1 (Inwardly rectifying potassium channel 1)
- infection score, replicate 1: 1.71
- cell count, replicate 1: 6534

app (approximated) #1
- infection score, replicate 1: 3.41
- cell count, replicate 1: 6211

app (approximated) #2
- infection score, replicate 1: 2.29
- cell count, replicate 1: 6188

app (approximated) #3
- infection score, replicate 1: 1.83
- cell count, replicate 1: 5832

app (approximated) #4
- infection score, replicate 1: 3.82
- cell count, replicate 1: 6866

Obsc (Obscurin) #1
- infection score, replicate 1: 9.33
- cell count, replicate 1: 5801

Obsc (Obscurin) #2
- infection score, replicate 1: 14.1
- cell count, replicate 1: 6120

Obsc (Obscurin) #3
- infection score, replicate 1: 21.2
- cell count, replicate 1: 5766

Obsc (Obscurin) #4
- infection score, replicate 1: 16.3
- cell count, replicate 1: 4160

Obsc (Obscurin) #5
- infection score, replicate 1: 2.34
- cell count, replicate 1: 6038

wat (waterproof)
- infection score, replicate 1: 3.78
- cell count, replicate 1: 6063

CR31824 (pseudo) #1
- infection score, replicate 1: 1.89
- cell count, replicate 1: 5729

CR31824 (pseudo) #2
- infection score, replicate 1: 10.5
- cell count, replicate 1: 6290

CG44085
- infection score, replicate 1: 1.77
- cell count, replicate 1: 6447

Icmt (Isoprenylcysteine carboxyl methyltransferase)
- infection score, replicate 1: 6.47
- cell count, replicate 1: 6224

KP78a + KP78b #1
- infection score, replicate 1: 3.09
- cell count, replicate 1: 6656

KP78a + KP78b #2
- infection score, replicate 1: 1.43
- cell count, replicate 1: 6582

CG9192
- infection score, replicate 1: 3.92
- cell count, replicate 1: 6194

CG12402 #1
- infection score, replicate 1: 0.99
- cell count, replicate 1: 6448

CG12402 #2
- infection score, replicate 1: 5.44
- cell count, replicate 1: 6340

CG17362
- infection score, replicate 1: 3.29
- cell count, replicate 1: 5526

woc (without children)
- infection score, replicate 1: 9.65
- cell count, replicate 1: 5491

timeout #1
- infection score, replicate 1: 3.44
- cell count, replicate 1: 6021

timeout #2
- infection score, replicate 1: 4.04
- cell count, replicate 1: 6592

timeout #3
- infection score, replicate 1: 7.72
- cell count, replicate 1: 6325

timeout #4
- infection score, replicate 1: 1.82
- cell count, replicate 1: 6864

timeout #5
- infection score, replicate 1: 7.82
- cell count, replicate 1: 6609

timeout #6
- infection score, replicate 1: 4.11
- cell count, replicate 1: 6106
